Compound potency records, mixed from different reports. Data source: NIAID ChemDB in PubChem.

Shared fields: enzyme or target tests; organism: Hepatitis C virus; target: Nonstructural protein 5B; measure: IC50

Conditions beyond the fields shown may differ between rows. Blank or dashed fields: not listed here. ICn: concentration for n% inhibition. a–b is a range or a potency band.

| compound | read by | strain | result |
|---|---|---|---|
| CNC(=O)c1c(-c2ccc(C)cc2)oc2ccc(Cl)cc12 | - | - | ≤0.5 µM |
| Cc1noc(C)c1COc1ccc(CCC2(C3CCCC3)CC(O)=CC(=O)O2)cc1 | - | - | 10–50 µM |
| Cc1ccnc(-c2ccc(C=C3SC(=S)N(c4ccc(C(=O)O)cc4)C3=O)o2)c1 | - | - | ≤1 µM |
| CNC(=O)c1c(-c2ccc(F)cc2)oc2cc(N(C)S(C)(=O)=O)c(OC(F)F)cc12 | - | - | ≤0.5 µM |
| O=C(O)c1ccc(N2C(=O)C(=Cc3ccc(-c4ccc5c(c4)OCO5)o3)SC2=S)cc1 | - | - | ≤1 µM |
| CNC(=O)c1c(-c2ccc(F)cc2)oc2cc(-c3ccncc3)c(OC(C)C)cc12 | - | - | ≤0.5 µM |
| O=C(O)c1ccc(N2C(=O)C(=Cc3ccc(-c4ccccc4)o3)SC2=S)cc1 | - | - | ≤1 µM |
| CNC(=O)c1c(-c2ccc(Br)c(F)c2)oc2ccc(OC(C)C)cc12 | - | - | ≤0.5 µM |
| COc1cc(OC)c(CCC2(C3CCCC3)CC(O)=C(Sc3nccs3)C(=O)O2)cc1Cl | - | - | <1 µM |
| O=C(O)CCN1C(=O)C(=Cc2ccc(-c3sccc3Cl)o2)SC1=S | - | - | ≤1 µM |
| CC(C)Oc1cccc(CCC2(C3CCCC3)CC(=O)CC(=O)O2)c1 | - | - | 1–10 µM |
| O=C(O)CCN1C(=O)C(=Cc2ccc(-c3cc(C(F)(F)F)ccc3Cl)o2)SC1=S | - | - | ≤1 µM |
| COc1cccc(CCC2(C3CCCC3)CC(O)=CC(=O)O2)c1 | - | - | 10–50 µM |
| O=C(O)CN1C(=O)C(=Cc2ccc(-c3cc(C(F)(F)F)ccc3Cl)o2)SC1=S | - | - | ≤1 µM |
| COc1ccc(CCC2(C3CCCC3)CC3=C(CCCO3)C(=O)O2)c(OC)c1 | - | - | >50 µM |
| COc1c(-c2ccc3cc(NS(C)(=O)=O)ccc3c2)cc(-n2ccc(=O)[nH]c2=O)cc1C(C)(C)C | nucleotide incorporation | GT 1a-H77 | 0.0028 µM |
| CNC(=O)c1c(-c2ccc(F)cc2)oc2cc(-c3ccoc3)c(OC(C)C)cc12 | - | - | ≤0.5 µM |
| COc1ccc(SC2=C(O)CC(CCc3ccc(OC(C)C)c(Cl)c3)(C3CCCC3)OC2=O)cc1 | - | - | <1 µM |

Repeating the final 2 entries:

compound	read by	strain	result
CNC(=O)c1c(-c2ccc(F)cc2)oc2cc(-c3ccoc3)c(OC(C)C)cc12	-	-	≤0.5 µM
COc1ccc(SC2=C(O)CC(CCc3ccc(OC(C)C)c(Cl)c3)(C3CCCC3)OC2=O)cc1	-	-	<1 µM